{"source": "patent US20250064844A1", "about": "(Emory University, priority 2020, published 2025)", "tested_on": "SARS/COVID-19 nsp12 chimera-luc", "assay": "Antiviral assay, SARS/COVID-19 nsp12 chimera-luc in Huh-7", "data": [{"compound": "O=c1nc(NO)ccn1C1OC(CO)C(O)C1O", "note": "(stereo not shown) [EIDD-1931, 1-(3,4-dihydroxy-5-(hydroxymethyl)tetrahydrofuran-2-yl)-4-(hydroxyamino)pyrimidin-2-one]", "values": [{"measurement": "EC50", "result": 70, "unit": "nM"}]}]}
